From publication PMC3210602, “Design of New α-Conotoxins: From Computer Modeling to Synthesis of Potent Cholinergic Compounds” (2011)

By UniProt entry, the sequences of proteins in these tests, tags left out. Residues count along the entry.
UniProt P58154, 20-229 limits assumed: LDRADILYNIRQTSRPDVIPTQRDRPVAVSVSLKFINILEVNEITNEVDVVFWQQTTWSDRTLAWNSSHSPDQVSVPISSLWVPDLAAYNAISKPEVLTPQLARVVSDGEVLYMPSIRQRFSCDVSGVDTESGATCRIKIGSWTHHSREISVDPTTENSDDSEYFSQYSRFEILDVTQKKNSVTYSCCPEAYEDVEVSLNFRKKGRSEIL
UniProt P36544, 23-502 limits assumed: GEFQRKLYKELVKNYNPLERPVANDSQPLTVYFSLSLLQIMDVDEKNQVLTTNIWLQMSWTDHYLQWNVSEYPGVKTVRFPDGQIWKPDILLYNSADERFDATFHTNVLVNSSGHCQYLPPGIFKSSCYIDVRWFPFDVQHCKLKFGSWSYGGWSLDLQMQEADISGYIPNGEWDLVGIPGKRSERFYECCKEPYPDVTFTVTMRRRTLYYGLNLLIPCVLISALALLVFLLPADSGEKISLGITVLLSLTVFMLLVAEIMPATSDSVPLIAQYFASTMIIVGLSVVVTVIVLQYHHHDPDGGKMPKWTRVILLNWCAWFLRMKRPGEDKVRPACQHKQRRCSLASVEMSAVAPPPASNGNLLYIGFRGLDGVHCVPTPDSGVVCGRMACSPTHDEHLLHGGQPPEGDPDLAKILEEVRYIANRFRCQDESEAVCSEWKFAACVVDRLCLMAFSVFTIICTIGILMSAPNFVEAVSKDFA

Tests used:
L. stagnalis AChBP = L. stagnalis AChBP (Lymnaea stagnalis, UniProt P58154); assay: Direct radioligand assay (equilibrium binding), L. stagnalis AChBP; conditions: same conditions as for A. californica AChBP
human α7 nAChR = human α7 nAChR (Homo sapiens, UniProt P36544); assay: Direct radioligand assay (equilibrium binding), human α7 nAChR in GH4C1 cells

C[C@@H]1NC(=O)[C@H](C)NC(=O)[C@@H]2CSSC[C@H](NC(=O)CN)C(=O)N[C@@H](CSSC[C@@H](C(N)=O)NC(=O)[C@H](Cc3ccc(O)c(I)c3)NC(=O)[C@H](CC(=O)O)NC(=O)[C@@H]3CCCN3C(=O)[C@H](CC(N)=O)NC(=O)[C@H](CC(N)=O)NC1=O)C(=O)N[C@@H](CO)C(=O)N[C@@H](Cc1c[nH]cn1)C(=O)N1CCC[C@H]1C(=O)N1CCC[C@H]1C(=O)N2
interaction of radioligand with L. stagnalis AChBP (in words) (L. stagnalis AChBP): without interacting | binding of radioligand to human α7 nAChR (in words) (human α7 nAChR): without interacting
